Laboratory results published in ChEMBL document CHEMBL5131509, “Design, synthesis and biological evaluations of niclosamide analogues against SARS-CoV-2” (Eur J Med Chem, 2022).

Columns and labels:
[1] = Stability of compound in human plasma at 100 uM by HPLC analysis; type: ADME, cell-free; details: read-out: Stability
[2] = Metabolic stability of the compound in human liver microsomes S9 fraction preincubated with NADPH for 10 mins followed by compound addition at 50 uM measured upto 360 mins by HPLC analysis; type: ADME, subcellular; details: read-out: Stability

SMILES: O=C(Nc1ccc([N+](=O)[O-])cc1Cl)c1cc(Cl)ccc1O [NICLOSAMIDE]
- remaining at 100 µM [1]: 40%
- remaining at 6 h, 50 µM [2]: 27%
